# Tested on: S. aureus strain HG003
smiles,measurement,value
"CCCCCCCc1cc(O)c2ccccc2[n+]1[O-] [HQNO, 2-heptyl-4-hydroxyquinoline N-oxide]","induction of tolerance to oxacillin, tobramycin and vancomycin",most robust tolerance
